Experimental data: publication PMC12170907

Molecular target: GFP-M-HBsAg-3CA (C76A, C90A, C221A) (Hepatitis B virus (serotype ayw, genotype D3))
Assay: cryo-EM structure

GFP-M-HBsAg-3CA (C76A, C90A, C221A) (natural protein)
stoichiometry N: 2
